Experimental data from publication PMC10878525.

Target: m9 (UniProt A0A8V0YY01)
Conditions: parent: est. 100; read off a plot

## soluble HPRS103-gp85 (CAG-sgp85-Fc) G221A; T226A
  percent of parent: 98%
